# Reference: patent US20140294925A1 (priority 2013, published 2014)
# What was measured:
# [1] = system: vancomycin-resistant Enterococci; conditions: humans, 200, 400 or 800 mg/kg doses twice daily; cited from earlier work
# [2] = system: multidrug-resistant C. difficile ATCC BAA1382 (MDR-CD)
substance,measurement,setting,value
ramoplanin,safety and suppression of asymptomatic gastrointestinal carriage of VRE,[1],safe and effective
same,MIC (individ.),[2],0.25 µg/mL
same,MIC for ramoplanin alone,[2],0.25 µg/mL
